The text below walks through data of ChEMBL document CHEMBL1151385, “Antineoplastic Agents 78. Isolation of Palystatins 1-3 From the Indian Ocean Palythoa liscia” (J Nat Prod, 1982).

For the data set, the species on record is Mus musculus. As to the kind of experiment: Toxicity in mouse. The conditions noted are these: in vivo.

SMILES strings stand for the structures.

Compound `C=C(/C=C\C[C@@H](O)[C@@H](O)[C@H](O)C/C=C/C=C\[C@@H](O)C[C@@H]1O[C@H](C[C@@H](O)[C@H](O)C[C@H]2O[C@H]([C@H](O)[C@H](O)CC[C@H](O)/C=C/[C@H](C)[C@@H](O)C[C@]3(O)O[C@H](C[C@@H](O)CCCCCCC[C@@]45C[C@@H](C)C[C@@](C)(O4)[C@@H](C[C@@H](C)CCCCC[C@@H](O)[C@H](O)[C@H](O)[C@@H](O)[C@H](O)[C@H]4O[C@H](C[C@H](O)[C@H](O)/C(C)=C/[C@H](O)C[C@@H](C)[C@H](O)C(=O)N/C=C/C(=O)NCCCO)[C@H](O)[C@@H](O)[C@@H]4O)O5)[C@H](O)[C@@H](O)[C@H]3O)C[C@@H](O)[C@@H]2O)[C@@H](O)[C@H](O)[C@H]1O)CC[C@H](O)[C@@H](O)[C@H](O)[C@H](C)C[C@H]1O[C@H](/C=C\[C@@H](O)[C@H](O)C[C@@H]2C[C@@H]3C[C@H](O2)[C@@H](CC[C@H]2O[C@H](CN)C[C@H]2O)O3)[C@@H](O)[C@H](O)[C@H]1O` yielded an LD100 of 1.3 µg/kg.
